Measurements as given in PMC9127493 (Signal Transduction and Targeted Therapy, 2022).

Tested on: SARS-CoV-2 wild-type isolate XM088T
Assay: Antiviral efficacy assay, qRT-PCR of virus released in supernatants
Format: cell-based

Cc1ccc(NC(=O)c2cccc(C(F)(F)F)c2)cc1Nc1nc(-c2ccncc2)c2[nH]ccc2n1 [cmpd 24]
selectivity index (SI, CC50/EC50): 4.21
